Compound potency records, mixed from different reports. Data source: NIAID ChemDB in PubChem.

Common to all: tests in culture; agent: Mycobacterium avium complex; measure: MIC

a–b is a range or a potency band. Conditions beyond the fields shown may differ between rows.

| structure | strain or isolate | result |
|---|---|---|
| CCc1nc(N)nc(N)c1-c1ccc(Cl)cc1 | DW30 | 32 µg/mL |
| COc1ccc(C)c(NCc2cnc3nc(N)nc(N)c3c2C)c1 | NJ211 | ≤0.13 µg/mL |
| CC(=O)Nc1ccc(/C(C)=N\NC(N)=S)cc1 | 116 | 32 µg/mL |
| CC[C@H]1OC(=O)[C@H](C)[C@@H](OC2C[C@@](C)(OC)[C@@H](O)[C@H](C)O2)[C@H](C)[C@@H](O[C@@H]2O[C@H](C)C[C@H](N(C)C)[C@H]2O)C(C)(O)C[C@@H](C)/C(=N\OCCc2cccs2)[C@H](C)[C@@H](O)[C@]1(C)O | 20092 (clarithromycin-resistant) | 50 µg/mL |
| O=c1nc(SCc2ccncc2)c2[nH]cnc2[nH]1 | NJ211 | >12.8 µg/mL |
| CC[C@H]1OC(=O)[C@H](C)[C@@H](OC2C[C@@](C)(OC)[C@@H](O)[C@H](C)O2)[C@H](C)[C@@H](O[C@@H]2O[C@H](C)C[C@H](N(C)C)[C@H]2O)C(C)(OC)C[C@@H](C)/C(=N\OCCCOc2ccccc2)[C@H](C)[C@@H](O)[C@]1(C)O | 20092 (clarithromycin-resistant) | 12.5 µg/mL |
| Cc1ccccc1CSc1ccccn1 | NJ211 | >12.8 µg/mL |
| NNC(=O)c1ccncc1 | N-961 (HIV+) | 2 µg/mL |
| Cc1cc(Br)cc(C)c1NCc1cnc2nc(N)nc(N)c2c1C | NJ168 | ≤0.13 µg/mL |
| CC[C@H]1OC(=O)[C@H](C)[C@@H](OC(C)=O)[C@H](C)[C@@H](O[C@@H]2O[C@H](C)C[C@H](N(C)C)[C@H]2O)C(C)(O)C[C@@H](C)/C(=N\OCCCOc2ccccc2)[C@H](C)[C@@H](O)[C@]1(C)O | 20092 (clarithromycin-resistant) | >50 µg/mL |
| Cc1ccc(Cl)c(NCc2cnc3nc(N)nc(N)c3c2C)c1 | NJ168 | ≤0.13 µg/mL |
| CC1(C)N=C(N)N=C(N)N1OCCCOc1cc(Cl)c(Cl)cc1Cl | DW12 | 1 µg/mL |
| COc1cc(NCc2cnc3nc(N)nc(N)c3c2C)cc(OC)c1OC | NJ211 | ≤0.13 µg/mL |
| CCNNC(=O)O[C@H]1[C@H](O[C@@H]2[C@@H](C)[C@H](O[C@H]3C[C@@](C)(OC)[C@@H](OC(C)=O)[C@H](C)O3)[C@@H](C)C(=O)O[C@H](CC)[C@@](C)(O)[C@H](O)[C@@H](C)/C(=N/OCCCC3CCCCC3)[C@H](C)CC2(C)O)O[C@H](C)C[C@@H]1N(C)C | 20039 (clarithromycin-susceptible) | 1.56 µg/mL |
| COCc1c(CNc2cc(OC)c(OC)c(OC)c2)cnc2nc(N)nc(N)c12 | NJ168 | >13 µg/mL |
| NNC(=O)c1ccncc1 | 13542 | 2.5–3.2 µg/mL |
| CC[C@H]1OC(=O)[C@H](C)[C@@H](O[C@H]2C[C@@](C)(OC)[C@@H](OC(C)=O)[C@H](C)O2)[C@H](C)[C@@H](O[C@@H]2O[C@H](C)C[C@H](N(C)C)[C@H]2OC(=O)NN(C)C)C(C)(O)C[C@@H](C)/C(=N\OCCCC2CCCCC2)[C@H](C)[C@@H](O)[C@]1(C)O | 20096 (clarithromycin-resistant) | 3.13 µg/mL |
| CC(C)(C)c1ccc(CSc2nc(=O)[nH]c3nc[nH]c23)cc1 | NJ211 | >12.8 µg/mL |
| CC[C@H]1OC(=O)[C@H](C)[C@@H](O[C@H]2C[C@@](C)(OC)[C@@H](O)[C@H](C)O2)[C@H](C)[C@@H](O[C@@H]2O[C@H](C)C[C@H](N(C)C)[C@H]2O)[C@](C)(OC)C[C@@H](C)C(=O)[C@H](C)[C@@H](O)[C@]1(C)O | N-981 (HIV+) | 2 µg/mL |
| CC[C@H]1OC(=O)[C@H](C)[C@@H](OC2C[C@@](C)(OC)[C@@H](OC(=O)c3ccccc3)[C@H](C)O2)[C@H](C)[C@@H](O[C@@H]2O[C@H](C)C[C@H](N(C)C)[C@H]2O)C(C)(O)C[C@@H](C)/C(=N\OCCCOc2ccccc2)[C@H](C)[C@@H](O)[C@]1(C)O | 20092 (clarithromycin-resistant) | 1.56 µg/mL |
| COc1ccc(NCc2cnc3nc(N)nc(N)c3c2C)cc1OC | NJ211 | ≤0.13 µg/mL |
| CO[C@H]1/C=C/O[C@@]2(C)Oc3c(C)c(O)c4c(O)c(c5c(c4c3C2=O)NC2(CCN(CC(C)C)CC2)N=5)=NC(=O)/C(C)=C\C=C\[C@H](C)[C@H](O)[C@@H](C)[C@@H](O)[C@@H](C)[C@H](OC(C)=O)[C@@H]1C | N-314 (HIV-) | 0.5 µg/mL |
| Cc1ccccc1CSc1nc(=O)[nH]c2nc[nH]c12 | NJ211 | >12.8 µg/mL |
| Cc1c(CNc2cccc3ccccc23)cnc2nc(N)nc(N)c12 | NJ168 | ≤0.13 µg/mL |
| CCCCCCCCCCNNC(=O)O[C@H]1[C@H](O[C@@H]2[C@@H](C)[C@H](O[C@H]3C[C@@](C)(OC)[C@@H](OC(C)=O)[C@H](C)O3)[C@@H](C)C(=O)O[C@H](CC)[C@@](C)(O)[C@H](O)[C@@H](C)/C(=N/OCCCC3CCCCC3)[C@H](C)CC2(C)O)O[C@H](C)C[C@@H]1N(C)C | 20039 (clarithromycin-susceptible) | >50 µg/mL |
| O=c1nc(SCc2cccc3ccccc23)c2[nH]cnc2[nH]1 | NJ211 | >12.8 µg/mL |
| Cc1c(CNc2ccc(OC(F)F)cc2)cnc2nc(N)nc(N)c12 | NJ3404 | ≤0.13 µg/mL |
| CC(C)N=C(N)/N=C(\N)NOCCCOc1cc(Cl)c(Cl)cc1Cl | 690 | 32 µg/mL |
| CCCCCCNNC(=O)O[C@H]1[C@H](O[C@@H]2[C@@H](C)[C@H](O[C@H]3C[C@@](C)(OC)[C@@H](OC(C)=O)[C@H](C)O3)[C@@H](C)C(=O)O[C@H](CC)[C@@](C)(O)[C@H](O)[C@@H](C)/C(=N/OCCCC3CCCCC3)[C@H](C)CC2(C)O)O[C@H](C)C[C@@H]1N(C)C | 20092 (clarithromycin-resistant) | 1.56 µg/mL |
| CO[C@H]1/C=C/O[C@@]2(C)Oc3c(C)c(O)c4c(=O)c(c5oc6cc(N7CCN(CC(C)C)CC7)cc(=O)c6nc5c4c3=C2O)NC(=O)/C(C)=C\C=C\[C@H](C)[C@H](O)[C@@H](C)[C@@H](O)[C@@H](C)[C@H](OC(C)=O)[C@@H]1C | N-316 (HIV-) | 0.1 µg/mL |